Reference: patent publication US20160264649A1

B1: 4838_L06 (PGT-121) (antibody, V domains shown)
VH: QMQLQESGPGLVKPSETLSLTCSVSGASISDSYWSWIRRSPGKGLEWIGYVHKSGDTNYSPSLKSRVNLSLDTSKNQVSLSLVAATAADSGKYYCARTLHGRRIYGIVAFNEWFTYFYMDVWGNGTQVTVSS
VL: SDISVAPGETARISCGEKSLGSRAVQWYQHRAGQAPSLIIYNNQDRPSGIPERFSGSPDSPFGTTATLTITSVEAGDEADYYCHIWDSRVPTKWVFGGGTTLTVL
B2: 5141_B17 (PGT-126) (antibody, V domains shown)
VH: QPQLQESGPGLVEASETLSLTCTVSGDSTAACDYFWGWVRQPPGKGLEWIGGLSHCAGYYNTGWTYHNPSLKSRLTISLDTPKNQVFLKLNSVTAADTAIYYCARFDGEVLVYHDWPKPAWVDLWGRGTLVTVSS
VL: QSALTQPPSASGSPGQSISISCTGTSNRFVSWYQQHPGKAPKLVIYGVNKRPSGVPDRFSGSKSGNTASLTVSGLQTDDEAVYYCSSLVGNWDVIFGGGTKLTVL
B3: 5123_A06 (PGT-125) (antibody, V domains shown)
VH: QSQLQESGPRLVEASETLSLTCNVSGESTGACTYFWGWVRQAPGKGLEWIGSLSHCQSFWGSGWTFHNPSLKSRLTISLDTPKNQVFLKLTSLTAADTATYYCARFDGEVLVYNHWPKPAWVDLWGRGIPVTVSS
VL: QSALTQPPSASGSPGQSITISCNGTATNFVSWYQQFPDKAPKLIIFGVDKRPPGVPDRFSGSRSGTTASLTVSRLQTDDEAVYYCGSLVGNWDVIFGGGTTLTVL
B4: 4858_P08 (PGT-123) (antibody, V domains shown)
VH: QLHLQESGPGLVKPPETLSLTCSVSGASINDAYWSWIRQSPGKRPEWVGYVHHSGDTNYNPSLKRRVTFSLDTAKNEVSLKLVDLTAADSATYFCARALHGKRIYGIVALGELFTYFYMDVWGKGTAVTVSS
VL: SSMSVSPGETAKISCGKESIGSRAVQWYQQKPGQPPSLIIYNNQDRPAGVPERFSASPDFRPGTTATLTITNVDAEDEADYYCHIYDARGGTNWVFDRGTTLTVL
B5: 4877_D15 (PGT-122) (antibody, V domains shown)
VH: QVHLQESGPGLVKPSETLSLTCNVSGTLVRDNYWSWIRQPLGKQPEWIGYVHDSGDTNYNPSLKSRVHLSLDKSKNLVSLRLTGVTAADSAIYYCATTKHGRRIYGVVAFKEWFTYFYMDVWGKGTSVTVSS
VL: TFVSVAPGQTARITCGEESLGSRSVIWYQQRPGQAPSLIIYNNNDRPSGIPDRFSGSPGSTFGTTATLTITSVEAGDEADYYCHIWDSRRPTNWVFGEGTTLIVL

The binders below were run against HIV-1 Env of the clade A viruses (n=26) of the cross-clade 162-pseudovirus panel (assay: cell-based or functional assay).

Binder | Median IC50 (µg/ml) against all viruses | Percent viruses neutralized with an IC50 <50 µg/ml | Median IC50 (µg/ml) against viruses neutralized with an IC50 <50 µg/ml
B1 | 0.87 µg/mL | 62% | 
B2 | 2.62 µg/mL | 50% | 0.01 µg/mL
B3 | 0.16 µg/mL | 65% | 0.01 µg/mL
B4 | 0.69 µg/mL | 58% | 
B5 | 3.69 µg/mL | 58% | 0.07 µg/mL

What follows are binders tested against HIV-1 Env of the clade D viruses (n=25) of the cross-clade 162-pseudovirus panel (assay: cell-based or functional assay).

Binder | Median IC50 (µg/ml) against all viruses | Median IC50 (µg/ml) against viruses neutralized with an IC50 <50 µg/ml | Percent viruses neutralized with an IC50 <50 µg/ml
B1 | 50 µg/mL | 0.01 µg/mL | 48%
B2 | 43.1 µg/mL | 0.04 µg/mL | 52%
B3 | 50 µg/mL | 0.09 µg/mL | 40%
B4 | 50 µg/mL |  | 48%
B5 | 50 µg/mL | 0.02 µg/mL | 40%

The binders below were run against HIV-1 Env of the clade AE viruses (n=10) of the cross-clade 162-pseudovirus panel (assay: cell-based or functional assay).

Binder | Median IC50 (µg/ml) against all viruses | Median IC50 (µg/ml) against viruses neutralized with an IC50 <50 µg/ml | Percent viruses neutralized with an IC50 <50 µg/ml
B1 | 50 µg/mL |  | 
B2 | 50 µg/mL | 1.77 µg/mL | 40%
B3 | 1.61 µg/mL | 0.03 µg/mL | 60%
B4 | 50 µg/mL |  | 0%
B5 | 50 µg/mL |  | 0%

These binders were tested against HIV-1 Env of the clade B viruses (n=31) of the cross-clade 162-pseudovirus panel (assay: cell-based or functional assay).

Binder | Percent viruses neutralized with an IC50 <50 µg/ml | Median IC50 (µg/ml) against all viruses | Median IC50 (µg/ml) against viruses neutralized with an IC50 <50 µg/ml
B1 | 84% |  | 
B2 | 81% | 0.04 µg/mL | 0.02 µg/mL
B3 | 74% | 0.06 µg/mL | 0.02 µg/mL
B4 | 81% |  | 
B5 | 84% |  | 0.02 µg/mL

These binders were tested against HIV-1 Env of the clade AG viruses (n=10) of the cross-clade 162-pseudovirus panel (assay: cell-based or functional assay).

Binder | Median IC50 (µg/ml) against all viruses | Median IC50 (µg/ml) against viruses neutralized with an IC50 <50 µg/ml | Percent viruses neutralized with an IC50 <50 µg/ml
B1 | 0.6 µg/mL | 0.49 µg/mL | 70%
B2 | 11.1 µg/mL | 0.03 µg/mL | 50%
B3 | 50 µg/mL | 0.01 µg/mL | 30%
B4 | 8.04 µg/mL | 0.61 µg/mL | 60%
B5 | 38.5 µg/mL | 2.75 µg/mL | 60%

Each binder was assayed against HIV-1 Env of the clade G viruses (n=15) of the cross-clade 162-pseudovirus panel (assay: cell-based or functional assay).

Binder | Percent viruses neutralized with an IC50 <50 µg/ml | Median IC50 (µg/ml) against all viruses | Median IC50 (µg/ml) against viruses neutralized with an IC50 <50 µg/ml
B1 | 80% |  | 
B2 | 33% | 48.9 µg/mL | 0.18 µg/mL
B3 | 27% | 50 µg/mL | 0.02 µg/mL
B4 | 80% |  | 
B5 | 80% |  | 

The binders below were run against HIV-1 Env of the clade C viruses (n=27) of the cross-clade 162-pseudovirus panel (assay: cell-based or functional assay).

Binder | Percent viruses neutralized with an IC50 <50 µg/ml | Median IC50 (µg/ml) against all viruses | Median IC50 (µg/ml) against viruses neutralized with an IC50 <50 µg/ml
B1 | 85% |  | 
B2 | 74% | 0.79 µg/mL | 0.18 µg/mL
B3 | 56% | 37.5 µg/mL | 1.83 µg/mL
B4 | 85% |  | 0.01 µg/mL
B5 | 81% |  | 0.03 µg/mL

These binders were tested against HIV-1 Env of the 162-pseudovirus panel representing all major circulating HIV-1 subtypes (HIV-1) (assay: cell-based or functional assay).

Binder | Median IC50 (µg/ml) against viruses neutralized with an IC50 <50 µg/ml | Percent viruses neutralized, IC50 < 0.1 µg/ml | Percent viruses neutralized, IC50 < 1 µg/ml | Percent viruses neutralized, IC50 < 50 µg/ml
B1 | 0.03 µg/mL | 44% | 57% | 70%
B2 | 0.04 µg/mL | 40% | 50% | 60%
B3 | 0.04 µg/mL | 32% | 40% | 52%
B4 | 0.03 µg/mL | 40% | 54% | 67%
B5 | 0.05 µg/mL | 36% | 48% | 65%

These binders were tested against HIV-1 Env of all viruses (n=162) of the cross-clade 162-pseudovirus panel (assay: cell-based or functional assay).

Binder | Median IC50 (µg/ml) against all viruses | Median IC50 (µg/ml) against viruses neutralized with an IC50 <50 µg/ml | Percent viruses neutralized with an IC50 <50 µg/ml
B1 | 0.31 µg/mL | 0.03 µg/mL | 70%
B2 | 1.08 µg/mL | 0.04 µg/mL | 60%
B3 | 34.1 µg/mL | 0.04 µg/mL | 52%
B4 | 0.35 µg/mL | 0.03 µg/mL | 
B5 | 2.02 µg/mL | 0.05 µg/mL | 65%

Each binder was assayed against HIV-1 Env of the clade F viruses (n=15) of the cross-clade 162-pseudovirus panel (assay: cell-based or functional assay).

Binder | Median IC50 (µg/ml) against all viruses | Percent viruses neutralized with an IC50 <50 µg/ml | Median IC50 (µg/ml) against viruses neutralized with an IC50 <50 µg/ml
B1 | 0.17 µg/mL | 80% | 
B2 | 50 µg/mL | 33% | 0.06 µg/mL
B3 | 50 µg/mL | 20% | 0.04 µg/mL
B4 | 0.31 µg/mL | 80% | 0.09 µg/mL
B5 | 1.29 µg/mL | 80% | 0.43 µg/mL
